Compound potency records, mixed from different reports. Data source: NIAID ChemDB in PubChem.

Shared fields: host cell toxicity; read-out: CC50

Neighbouring rows are from separate reports. CCn is the concentration with n% toxicity to the cells. a–b is a range or a potency band.

{"structure": "CC(Oc1ccc2ncccc2c1)C(=O)N/N=C/c1ccccc1F", "cell line": "MRC-5", "method": "absorbance", "value": ">512 µM"}
{"structure": "Nc1nc2c(ncn2[C@@H]2O[C@H](CO)[C@@H](O)[C@H]2O)c(=O)o1", "cell line": "H9", "method": "MTT", "value": ">500 µg/mL"}
{"structure": "Cc1cccc(-c2nn(-c3ccccc3)cc2/C=C/c2nc3sccn3c(=O)c2-c2ccc(C#N)cc2)c1", "cell line": "Monocyte-derived macrophages", "method": "MTT", "value": "421 µg/mL"}
{"structure": "Nc1nc2c(ncn2[C@H]2C=C[C@@H](CO)O2)c(=O)o1", "cell line": "H9", "method": "MTT", "value": ">500 µg/mL"}
{"structure": "CCCCCCCCCCCCCCCCCCOCCOP(=O)(O)COCCn1cnc2c(N)ncnc21", "cell line": "MT-2", "method": "propidium iodide", "value": "0.018 µM"}
{"structure": "Nc1nc(Cl)c2nnn(C[C@H]3CC[C@@H](CO)C3)c2n1", "cell line": "E6SM", "value": "≥400 µg/mL"}
{"structure": "O=c1cc(-c2ccccc2)oc2cc(O)cc(O)c12", "cell line": "OM-10.1/HIV-1", "value": "25 µM"}
{"structure": "CC(C)[C@H](NC(=O)OCc1ccncc1)C(=O)N[C@@H](Cc1ccccc1)[C@@H](O)[C@H](O)[C@H](Cc1ccccc1)NC(=O)[C@@H](NC(=O)OCc1ccncc1)C(C)C", "cell line": "H9", "method": "trypan blue", "value": ">100 µM"}
{"structure": "CO[C@H]1/C=C/O[C@@]2(C)Oc3c(C)c(O)c4c(O)c(c(/C=N/N5CCN(C)CC5)c(O)c4c3C2=O)NC(=O)/C(C)=C\\C=C\\[C@H](C)[C@H](O)[C@@H](C)[C@@H](O)[C@@H](C)[C@H](OC(C)=O)[C@@H]1C", "cell line": "Monocyte-derived macrophages", "method": "MTT", "value": "400 µg/mL"}
{"structure": "CC[C@@]1(O)C(=O)OCc2c1cc1n(c2=O)Cc2cc3c(N)cccc3nc2-1", "cell line": "WI-38", "method": "MTT", "value": "0.4 µg/mL"}
{"structure": "Nc1c(S(=O)(=O)O)cc(Nc2ccc(Nc3nc(Cl)nc(Nc4ccccc4S(=O)(=O)O)n3)c(S(=O)(=O)O)c2)c2c1C(=O)c1ccccc1C2=O", "cell line": "MOLT-4/H9(HIV-1(IIIB))", "value": "10–100 µM"}
{"structure": "O=c1[nH]c(=O)n([C@H]2C[C@H](O)[C@@H](CO)O2)cc1/C=C/Br", "cell line": "E6SM", "value": ">400 µg/mL"}
{"structure": "N#Cc1c(SCCCBr)nsc1-c1ccccc1", "cell line": "L929", "value": "25 µg/mL"}
{"structure": "Cc1ccc(-c2ccc3c(c2)C=C(C(=O)Nc2ccc(C[N+](C)(C)C4CCOCC4)cc2)CCC3)cc1", "cell line": "P4R5", "value": ">10 µM"}
{"structure": "CC(C)[C@H](NC(=O)OCc1nccs1)C(=O)N[C@@H](Cc1ccccc1)C(O)[C@H](Cc1ccccc1)NC(=O)[C@@H](NC(=O)OCc1nccs1)C(C)C", "cell line": "H9", "method": "trypan blue", "value": "75 µM"}
{"structure": "CC(Oc1ccc2ncccc2c1)C(=O)N/N=C/c1ccc(C#N)cc1", "cell line": "MRC-5", "method": "absorbance", "value": ">512 µM"}
{"structure": "CC1=CC2=C(C(C)C)C(O)C(=O)/C(=C\\NC(C)(C)C(=O)O)C2C(O)=C1c1c(C)cc2c(C(C)C)c(O)c(O)c(C=NC(C)(C)C(=O)O)c2c1O.[Na+].[Na+]", "cell line": "GHOST X4/R5", "method": "MTT", "value": "53.27 µM"}
{"structure": "C[C@]12CC=C3C=C4[C@@H](O)[C@H](O)[C@@H](N)C[C@]45CC[C@]3(O5)[C@@H]1CC=C2c1ccc2cnncc2c1", "cell line": "HUVEC", "method": "ATP", "value": ">0.1 µM"}
{"structure": "Nc1ccn(C[C@H]2COP(=O)(O)CO2)c(=O)n1", "cell line": "HSB-2", "value": "109 µM"}
{"structure": "COc1c(C)c2c(c(O)c1C/C=C(\\C)CCC(=O)O)C(=O)OC2", "cell line": "MA-104", "value": ">100 µg/mL"}
{"structure": "C[C@H]1[C@@H](CCCOP(=O)(O)Oc2ccccc2)O[C@@H]2OC3(C)CC[C@H]4[C@H](C)CC[C@@H]1[C@@]24OO3", "cell line": "HCT116", "value": "43.5 µM"}
{"structure": "Cc1cc2c(C(C)C)c(O)c(O)c(C=O)c2c(O)c1-c1c(C)cc2c(C(C)C)c(O)c(O)c(C=O)c2c1O", "cell line": "GHOST X4/R5", "method": "MTT", "value": "6.85 µM"}
{"structure": "Cc1ccccc1-c1nn(-c2ccccc2)cc1/C=C/c1nc2sccn2c(=O)c1-c1ccc(C#N)cc1", "cell line": "Monocyte-derived macrophages", "method": "MTT", "value": "381 µg/mL"}
{"structure": "CONCCOc1ccc2cc1Oc1ccc(cc1)C[C@H]1c3c(cc4c(c3Oc3cc5c(cc3OC)CCN(C)[C@@H]5C2)OCO4)CCN1C", "cell line": "U1", "method": "MTT", "value": "1.3 µg/mL"}
{"structure": "CC(Oc1ccc2ncccc2c1)C(=O)N/N=C/c1ccc([N+](=O)[O-])cc1", "cell line": "MRC-5", "method": "absorbance", "value": ">512 µM"}
{"structure": "CC1=CC2=C(C(C)C)C(O)C(=O)/C(=C\\N[C@H](CC(C)C)C(=O)O)C2C(O)=C1c1c(C)cc2c(C(C)C)c(O)c(O)c(C=N[C@@H](CC(C)C)C(=O)O)c2c1O.[Na+].[Na+]", "cell line": "GHOST", "method": "MTT", "value": "43.66 µM"}
{"structure": "CC(C)[C@@H](C)/C=C/[C@@H](C)[C@H]1CC[C@H]2C3=CC=C4C[C@@H](O)CC[C@]4(C)[C@H]3CC[C@]12C", "cell line": "Li23", "method": "WST", "value": ">4 µg/mL"}
{"structure": "CC1=CC2=C(C(C)C)C(O)C(=O)/C(=C\\N[C@H](C)C(=O)O)C2C(O)=C1c1c(C)cc2c(C(C)C)c(O)c(O)c(C=N[C@@H](C)C(=O)O)c2c1O.[Na+].[Na+]", "cell line": "GHOST", "method": "MTT", "value": "63.46 µM"}
{"structure": "N#Cc1c(N2CCOCC2)nsc1-c1ccccc1", "cell line": "HEP-2", "value": "1 µg/mL"}
{"structure": "CC(C)[C@H](NC(=O)OCc1ccccc1)C(=O)N[C@@H](Cc1ccccc1)[C@H](O)[C@H](Cc1ccccc1)NC(=O)[C@@H](NC(=O)N1CCN(C)CC1)C(C)C", "cell line": "H9", "method": "trypan blue", "value": "54 µM"}
{"structure": "C[C@@H]1C[C@H](C)C[C@H](C)[C@@H](O)CC(=O)O[C@@H](C2CCC[C@H]2C(=O)O)C/C=C/C=C(/CN)[C@H](O)[C@@H](C)C1", "cell line": "MCR-5", "method": "MTT", "value": "0.201 µg/mL"}
{"structure": "CC(Oc1ccc2ncccc2c1)C(=O)N/N=C/c1cc(CO)c(CO)c(CO)c1", "cell line": "MRC-5", "method": "absorbance", "value": ">512 µM"}
{"structure": "CO[C@@H]1[C@H](O)[C@@H](COP(=O)(O)OP(=O)(O)OP(=O)(O)O)O[C@H]1n1ccc(N)nc1=O", "cell line": "HepG2-5B", "method": "MTT", "value": ">100 µg/mL"}
{"structure": "Nc1nc2c(nnn2C[C@H]2CC[C@@H](CO)C2)c(=O)[nH]1", "cell line": "E6SM", "value": ">200 µg/mL"}
{"structure": "O=c1[nH]c(=O)n(CCOCP(=O)(O)O)cc1F", "cell line": "MT-2", "method": "propidium iodide", "value": ">100 µM"}
{"structure": "COc1ccc2cc1Oc1ccc(cc1)C[C@H]1c3c(cc4c(c3Oc3cc5c(cc3OC)CCN(C)[C@@H]5C2)OCO4)CCN1C", "cell line": "U1", "method": "MTT", "value": "1.3 µg/mL"}
{"structure": "CN(C)[C@H]1C[C@@]23CC[C@@]4(O2)C(=CC[C@]2(C)C(c5ccc6ccncc6c5)=CC[C@H]24)CC3[C@@H](O)[C@@H]1O", "cell line": "HUVEC", "method": "ATP", "value": "0.1–1 µM"}
{"structure": "CCCCCCCCCCCCCCCCOCCCOP(=O)(O)CO[C@H](CO)Cn1cc(F)c(N)nc1=O", "cell line": "MT-2", "method": "propidium iodide", "value": "41 µM"}
{"structure": "C/C(=N\\OCc1ccc(F)cc1)c1c(C)cc(=O)n(O)c1O", "conditions": "7 d", "cell line": "HepG2", "method": "MTS", "value": "22 µM"}
{"structure": "CCc1cc(CN2CCC(c3[nH]ncc3Cc3ccccc3)CC2)[nH]n1", "cell line": "MAGI-CCR5", "method": "MTS", "value": ">300 µM"}
{"structure": "CC[C@@H](C)[C@@H](N/C=C1\\C(=O)C(O)C(C(C)C)=C2C=C(C)C(c3c(C)cc4c(C(C)C)c(O)c(O)c(C=N[C@H](C(=O)O)[C@@H](C)CC)c4c3O)=C(O)C21)C(=O)O.[Na+].[Na+]", "cell line": "GHOST X4/R5", "method": "MTT", "value": "26.48 µM"}
{"structure": "c1ccc(Cc2cn[nH]c2C2CCN(Cc3cccnc3)CC2)cc1", "cell line": "MAGI-CCR5", "method": "MTS", "value": ">300 µM"}
{"structure": "CC1N=Nc2cc(C3=CC[C@@H]4[C@]3(C)CC=C3C=C5[C@@H](O)[C@H](O)[C@@H](N(C)C)C[C@]56CC[C@@]34O6)ccc21", "cell line": "HUVEC", "method": "ATP", "value": ">1 µM"}
{"structure": "CCCSc1nsc(-c2ccccc2)c1C(=O)OC", "cell line": "L929", "value": "50 µg/mL"}
{"structure": "Nc1ccn([C@H]2CC[C@@H](CO)O2)c(=O)n1", "cell line": "PBM", "method": "XTT", "value": ">10 µM"}
{"structure": "Nc1ccn([C@@H]2C=C(CO)[C@@H](O)[C@@H]2O)c(=O)n1", "cell line": "MA-104", "value": ">100 µg/mL"}
{"structure": "CC(C)[C@H](NC(=O)N(C)Cc1ccccn1)C(=O)N[C@@H](Cc1ccccc1)[C@H](O)[C@@H](O)[C@H](Cc1ccccc1)NC(=O)[C@@H](NC(=O)N(C)Cc1ccccn1)C(C)C", "cell line": "H9", "method": "trypan blue", "value": ">100 µM"}
{"structure": "COc1cc(O)c2c(c1)OC(c1ccc(O)cc1)CC2=O", "cell line": "THP-1", "method": "MTT", "value": "39.5 µg/mL"}
{"structure": "NC(=O)c1ncn([C@@H]2O[C@H](CO)[C@@H](O)[C@H]2O)n1", "cell line": "LLC-MK2", "value": "200–1000 µg/mL"}
{"structure": "Nc1ncnc2c1ncn2C[C@@H](CF)OCP(=O)(O)O", "cell line": "HSB-2", "value": ">300 µM"}
{"structure": "CC(Oc1ccc2ncccc2c1)C(=O)N/N=C/c1ccc(Cl)cc1", "cell line": "MRC-5", "method": "absorbance", "value": ">512 µM"}
{"structure": "Cc1cn2c(C(=O)Nc3ccc(Oc4cccc(C(F)(F)F)c4)cc3)c(C)nc2s1", "cell line": "VERO E6", "method": "luminescence", "value": ">50 µM"}
{"structure": "NC(=O)c1ncn([C@@H]2O[C@H](CO)[C@@H](O)[C@H]2O)n1", "cell line": "MA-104", "value": ">100 µg/mL"}
{"structure": "CCCCCCCCCCCCCCCCOCCCOP(=O)(O)COCCn1ccc(N)nc1=O", "cell line": "MT-2", "method": "propidium iodide", "value": "39 µM"}
{"structure": "O=C(O)P(=O)(O)O", "cell line": "HSB-2", "value": "818 µM"}
{"structure": "Nc1ccnc(CN2CCC(c3[nH]ncc3Cc3ccccc3)CC2)n1", "cell line": "MAGI-CCR5", "method": "MTS", "value": ">300 µM"}
{"structure": "CC(Oc1ccc2ncccc2c1)C(=O)N/N=C/c1ccccc1[N+](=O)[O-]", "cell line": "MRC-5", "method": "absorbance", "value": ">512 µM"}
{"structure": "NC(=O)c1ncn([C@@H]2O[C@H](CO)[C@@H](O)[C@H]2O)n1", "cell line": "Ava5", "value": "22 µM"}
{"structure": "CC1=CC2=C(C(C)C)C(O)C(=O)/C(=C\\N[C@@H](C(=O)O)C(C)C)C2C(O)=C1c1c(C)cc2c(C(C)C)c(O)c(O)c(C=N[C@H](C(=O)O)C(C)C)c2c1O.[Na+].[Na+]", "cell line": "GHOST", "method": "MTT", "value": "43.3 µM"}
{"structure": "C[S@@](=O)CCCCN=C=S", "cell line": "HA", "method": "WST", "value": "11.17 µM"}
{"structure": "CCc1nccc(CN2CCC(c3[nH]ncc3Cc3ccccc3)CC2)n1", "cell line": "MAGI-CCR5", "method": "MTS", "value": ">100 µM"}
{"structure": "Nc1nc2c(ncn2[C@H]2C[C@H](O)[C@@H](CO)O2)c(=O)o1", "cell line": "H9", "method": "MTT", "value": ">500 µg/mL"}
{"structure": "CC(C)[C@H](NC(=O)OCc1ccccc1)C(=O)N[C@@H](Cc1ccccc1)[C@H](O)[C@H](Cc1ccccc1)NC(=O)[C@@H](NC(=O)c1cccnc1)C(C)C", "cell line": "H9", "method": "trypan blue", "value": ">100 µM"}
{"structure": "Nc1nc2c(nnn2CCOCP(=O)(O)O)c(=O)[nH]1", "cell line": "HSB-2", "value": "45 µM"}
{"structure": "COc1cc2c(cc1O)C(OC)CN1CC=C3C=C[C@H](OC)C[C@]321", "cell line": "HEP-2", "method": "MTT", "value": "11.5 µg/mL"}
{"structure": "Nc1ncnc2c1ncn2CCOCP(=O)(O)O", "cell line": "MT-2", "method": "propidium iodide", "value": "157 µM"}
{"structure": "COc1cc2c3cc1Oc1c4c(cc5c1[C@H](Cc1ccc(cc1)Oc1cc(ccc1OCCN1CCNCC1)C[C@H]3N(C)CC2)N(C)CC5)OCO4", "cell line": "U1", "method": "MTT", "value": "1.2 µg/mL"}

A second listing of 4 rows from above:

{"structure": "O=c1[nH]c(=O)n([C@H]2C[C@H](O)[C@@H](CO)O2)cc1/C=C/Br", "cell line": "E6SM", "value": ">400 µg/mL"}
{"structure": "CC(C)[C@H](NC(=O)N(C)Cc1ccccn1)C(=O)N[C@@H](Cc1ccccc1)[C@H](O)[C@@H](O)[C@H](Cc1ccccc1)NC(=O)[C@@H](NC(=O)N(C)Cc1ccccn1)C(C)C", "cell line": "H9", "method": "trypan blue", "value": ">100 µM"}
{"structure": "CC(Oc1ccc2ncccc2c1)C(=O)N/N=C/c1ccc([N+](=O)[O-])cc1", "cell line": "MRC-5", "method": "absorbance", "value": ">512 µM"}
{"structure": "COc1cc(O)c2c(c1)OC(c1ccc(O)cc1)CC2=O", "cell line": "THP-1", "method": "MTT", "value": "39.5 µg/mL"}